Anti-infective test results gathered from many reports (values: NIAID ChemDB through PubChem).

All rows: whole-cell or culture tests; organism: Pneumocystis carinii; endpoint: inhibition

An empty or dashed field is not shown. Inhibition is in % at the dose shown (toxicity tests: loss of growth or viability). Neighbouring rows are from separate reports.

compound,conditions,tested at,cell line,value
Cc1c(O)c(=O)ccn1C,7 d,72 µM,Human fibroblasts,74%
NC(=NCc1ccc(F)cc1)c1ccc(N2CCN(c3ccccc3)CC2)cc1,-,10 µg/mL,-,70%
CCc1c(O)c(=O)ccn1CCOC,7 d,72 µM,Human fibroblasts,81%
CCCCCCCCN=C(N)c1ccc(N2CCN(c3ccccc3)CC2)cc1,-,50 µg/mL,-,80%
[Ca+2],7 d,30 µM,Human fibroblasts,31%
NC(N)=NC(=O)c1nc(Cl)c(N)nc1N,-,100 µM,-,8%
CC(C)(C)CN=C(N)c1ccc(N2CCCN(c3ccc(C(N)=NCC(C)(C)C)cc3)CC2)cc1,-,1 µM,-,35%
CCCCCCCCCCCCN=C(N)c1ccc(N2CCN(c3ccccc3)CC2)cc1,-,0.1 µg/mL,-,0%
CC(C)CN(C[C@@H](O)[C@H](Cc1ccccc1)NC(=O)O[C@H]1CCOC1)S(=O)(=O)c1ccc(N)cc1,-,0.32 µM,-,59.29%
Cc1[nH]c2nc(N)[nH]c(=O)c2c1CSc1ccncc1,-,32 µM,-,76%
N=C(N)c1ccc(N2CCCN(c3ccc(C(=N)N)cc3)CC2)cc1,-,1 µM,-,100%
N=C(N)c1ccc(OC[C@@H](O)[C@@H](O)COc2ccc(C(=N)N)cc2)cc1,-,0.2 µM,-,22%
CC(C)CN=C(N)c1ccc(N2CCCN(c3ccc(C(N)=NCC(C)C)cc3)CC2)cc1,-,1 µM,-,39%
CC(=O)Nc1ccc(C(=O)O)cc1,-,3000 µM,-,87%
C=CCSSSCC=C,7 d,1000 µg/mL,-,30%
OC(Cn1cncn1)(Cn1cncn1)c1ccc(F)cc1F,10 d,10 µg/mL,WI-38,20%
N=C(N)c1ccc(N2CCN(c3ccccc3)CC2)cc1,-,0.1 µg/mL,-,23%
C(=C/COc1ccc(C2=NCCN2)cc1)/COc1ccc(C2=NCCN2)cc1,-,0.2 µM,-,75%
CC(C)CCN=C(N)c1ccc(N2CCN(c3ccccc3)CC2)cc1,-,0.1 µg/mL,-,0%
C(=C\COc1ccc(C2=NCCN2)cc1)/COc1ccc(C2=NCCN2)cc1,-,0.2 µM,-,58%
CC(C(O)(Cn1cncn1)c1ccc(F)cc1F)S(C)(=O)=O,10 d,10 µg/mL,WI-38,0%
CC(=O)N(O)CCCCCNC(=O)CCC(=O)N(O)CCCCCNC(=O)CCC(=O)N(O)CCCCCN,-,25 µM,-,25%
CCCCN=C(N)c1ccc(N2CCN(c3ccccc3)CC2)cc1,-,0.1 µg/mL,-,28%
c1ccc(CNCCCNCCCCCCCNCCCNCc2ccccc2)cc1,-,30 µM,-,77%
CCC(CC)N=C(N)c1ccc(N2CCN(c3ccccc3)CC2)cc1,-,50 µg/mL,-,97%
Clc1ccc(COC(Cn2ccnc2)c2ccc(Cl)cc2Cl)c(Cl)c1,10 d,10 µg/mL,WI-38,76%

2 of the rows above, restated:

compound | conditions | tested at | cell line | value
CC(C)CN=C(N)c1ccc(N2CCCN(c3ccc(C(N)=NCC(C)C)cc3)CC2)cc1 | - | 1 µM | - | 39%
CC(C)CCN=C(N)c1ccc(N2CCN(c3ccccc3)CC2)cc1 | - | 0.1 µg/mL | - | 0%